The data set deals with pLAI reporter virus. It counts as cell-based, HIV. The conditions noted are these: EC50 (50% HS)/EC50 (CCM).
As to `C[C@H]1CC[C@]2(CC(N3CCCC3)=NO2)[C@H]2CN1C(=O)c1c(O)c(=O)c(C(=O)NCc3c(F)cc(F)cc3F)cn12` [Example 75, (3′S,5S,7′R)-12′-hydroxy-3′-methyl-1′,11′-dioxo-3-(pyrrolidin-1-yl)-N-(2,4,6-trifluorobenzyl)-1′,4′,5′,11′-tetrahydro-3′H,4H,7′H-spiro[isoxazole-5,6′-[2,7]methanopyrido[1,2-a][1,4]diazonine]-10′-carboxamide], the “RLUC 50% HS Shift” value came out at 6×.
The value for `C[C@H]1CC[C@]2(CC(n3cnnc3)=NO2)[C@H]2CN1C(=O)c1c(O)c(=O)c(C(=O)NCc3c(F)cc(F)cc3F)cn12` [Example 76, (3′S,5S,7′R)-12′-hydroxy-3′-methyl-1′,11′-dioxo-3-(4H-1,2,4-triazol-4-yl)-N-(2,4,6-trifluorobenzyl)-1′,4′,5′,11′-tetrahydro-3′H,4H,7′H-spiro[isoxazole-5,6′-[2,7]methanopyrido[1,2-a][1,4]diazonine]-10′-carboxamide] was 8×.
For `C[C@H]1CC[C@]2(CC(n3cccn3)=NO2)[C@H]2CN1C(=O)c1c(O)c(=O)c(C(=O)NCc3c(F)cc(F)cc3F)cn12` [Example 77, (3′S,5S,7′R)-12′-hydroxy-3′-methyl-1′,11′-dioxo-3-(1H-pyrazol-1-yl)-N-(2,4,6-trifluorobenzyl)-1′,4′,5′,11′-tetrahydro-3′H,4H,7′H-spiro[isoxazole-5,6′-[2,7]methanopyrido[1,2-a][1,4]diazonine]-10′-carboxamide], the “RLUC 50% HS Shift” value is 35×.
Turning to `C[C@H]1CC[C@]2(CC(C#CC(C)(C)S(C)(=O)=O)=NO2)[C@H]2CN1C(=O)c1c(O)c(=O)c(C(=O)NCc3c(F)cc(F)cc3F)cn12` [Example 79, (3′S,5S,7′R)-12′-hydroxy-3′-methyl-3-(3-methyl-3-(methylsulfonyl)but-1-yn-1-yl)-1′,11′-dioxo-N-(2,4,6-trifluorobenzyl)-1′,4′,5′,11′-tetrahydro-3′H,4H,7′H-spiro[isoxazole-5,6′-[2,7]methanopyrido[1,2-a][1,4]diazonine]-10′-carboxamide], the “RLUC 50% HS Shift” value is 1×.
The same measure for `C[C@H]1CC[C@@]2(CC(C#CC(C)(C)S(C)(=O)=O)=NO2)[C@H]2CN1C(=O)c1c(O)c(=O)c(C(=O)NCc3c(F)cc(F)cc3F)cn12` [Example 80, (3′S,5R,7′R)-12′-hydroxy-3′-methyl-3-(3-methyl-3-(methylsulfonyl)but-1-yn-1-yl)-1′,11′-dioxo-N-(2,4,6-trifluorobenzyl)-1′,4′,5′,11′-tetrahydro-3′H,4H,7′H-spiro[isoxazole-5,6′-[2,7]methanopyrido[1,2-a][1,4]diazonine]-10′-carboxamide]: 2×.
The value for `C[C@H]1CC[C@]2(CC(C#CC(C)(C)O)=NO2)[C@H]2CN1C(=O)c1c(O)c(=O)c(C(=O)NCc3c(F)cc(F)cc3F)cn12` [Example 81, (3′S,5S,7′R)-12′-hydroxy-3-(3-hydroxy-3-methylbut-1-yn-1-yl)-3′-methyl-1′,11′-dioxo-N-(2,4,6-trifluorobenzyl)-1′,4′,5′,11′-tetrahydro-3′H,4H,7′H-spiro[isoxazole-5,6′-[2,7]methanopyrido[1,2-a][1,4]diazonine]-10′-carboxamide] was 1×; that for `C[C@H]1CC[C@]2(CC(F)=NO2)[C@H]2CN1C(=O)c1c(O)c(=O)c(C(=O)NCc3c(F)cc(F)cc3F)cn12` [Example 82, (3′S,5S,7′R)-3-fluoro-12′-hydroxy-3′-methyl-1′,11′-dioxo-N-(2,4,6-trifluorobenzyl)-1′,4′,5′,11′-tetrahydro-3′H,4H,7′H-spiro[isoxazole-5,6′-[2,7]methanopyrido[1,2-a][1,4]diazonine]-10′-carboxamide] was 143×.
The value for `[2H]C1C(OC)=NO[C@@]12CC[C@H](C)N1C[C@H]2n2cc(C(=O)NCc3c(F)cc(F)cc3F)c(=O)c(O)c2C1=O` (stereo partly drawn) [Example 83, (3′S,5S,7′R)-12′-hydroxy-3-methoxy-3′-methyl-1′,11′-dioxo-N-(2,4,6-trifluorobenzyl)-1′,4′,5′,11′-tetrahydro-3′H,4H,7′H-spiro[isoxazole-5,6′-[2,7]methanopyrido[1,2-a][1,4]diazonine]-4-d-10′-carboxamide] was 137×; that for `COC1=NO[C@@]2(CC[C@H](C)N3C[C@H]2n2cc(C(=O)NCc4c(F)cc(F)cc4F)c(=O)c(O)c2C3=O)[C@H]1O` [Example 84, (3′S,4R,5R,7′R)-4,12′-dihydroxy-3-methoxy-3′-methyl-1′,11′-dioxo-N-(2,4,6-trifluorobenzyl)-1′,4′,5′,11′-tetrahydro-3′H,4H,7′H-spiro[isoxazole-5,6′-[2,7]methanopyrido[1,2-a][1,4]diazonine]-10′-carboxamide] was 74×; that for `COC1=NO[C@@]2(CC[C@H](C)N3C[C@H]2n2cc(C(=O)NCc4c(F)cc(F)cc4F)c(=O)c(O)c2C3=O)[C@H]1C` [Example 85, (3′S,4R,5S,7′R)-12′-hydroxy-3-methoxy-3′,4-dimethyl-1′,11′-dioxo-N-(2,4,6-trifluorobenzyl)-1′,4′,5′,11′-tetrahydro-3′H,4H,7′H-spiro[isoxazole-5,6′-[2,7]methanopyrido[1,2-a][1,4]diazonine]-10′-carboxamide] was 144×.
For `COC1=NO[C@@]2(CC[C@H](C)N3C[C@H]2n2cc(C(=O)NCc4c(F)cc(F)cc4F)c(=O)c(O)c2C3=O)[C@@H]1F` [Example 86, (3′S,4S,5R,7′R)-4-fluoro-12′-hydroxy-3-methoxy-3′-methyl-1′,11′-dioxo-N-(2,4,6-trifluorobenzyl)-1′,4′,5′,11′-tetrahydro-3′H,4H,7′H-spiro[isoxazole-5,6′-[2,7]methanopyrido[1,2-a][1,4]diazonine]-10′-carboxamide], the “RLUC 50% HS Shift” value was determined as 228×.
The value for `COC1=NO[C@@]2(CC[C@H](C)N3C[C@H]2n2cc(C(=O)NCc4c(F)cc(F)cc4F)c(=O)c(O)c2C3=O)[C@H]1F` [Example 87, (3′S,4R,5R,7′R)-4-fluoro-12′-hydroxy-3-methoxy-3′-methyl-1′,11′-dioxo-N-(2,4,6-trifluorobenzyl)-1′,4′,5′,11′-tetrahydro-3′H,4H,7′H-spiro[isoxazole-5,6′-[2,7]methanopyrido[1,2-a][1,4]diazonine]-10′-carboxamide] was 159×; that for `C[C@H]1CC[C@@]2(ON=C(CF)[C@@H]2O)[C@H]2CN1C(=O)c1c(O)c(=O)c(C(=O)NCc3c(F)cc(F)cc3F)cn12` [Example 88, (3′S,4S,5R,7′R)-3-(fluoromethyl)-4,12′-dihydroxy-3′-methyl-1′,11′-dioxo-N-(2,4,6-trifluorobenzyl)-1′,4′,5′,11′-tetrahydro-3′H,4H,7′H-spiro[isoxazole-5,6′-[2,7]methanopyrido[1,2-a][1,4]diazonine]-10′-carboxamide] was 933×.
In the case of `C[C@H]1CC[C@@]2(ON=C(CF)[C@@H]2O)[C@H]2CN1C(=O)c1c(O)c(=O)c(C(=O)NCc3ccc(F)cc3F)cn12` [Example 89, (3′S,4S,5R,7′R)—N-(2,4-difluorobenzyl)-3-(fluoromethyl)-4,12′-dihydroxy-3′-methyl-1′,11′-dioxo-1′,4′,5′,11′-tetrahydro-3′H,4H,7′H-spiro[isoxazole-5,6′-[2,7]methanopyrido[1,2-a][1,4]diazonine]-10′-carboxamide], the “RLUC 50% HS Shift” value came out at 160×.
The value for `CC1=NO[C@@]2(CC[C@H](C)N3C[C@H]2n2cc(C(=O)NCc4ccc(F)cc4F)c(=O)c(O)c2C3=O)O1` [Example 91, (3′S,5R,7′R)—N-(2,4-difluorobenzyl)-12′-hydroxy-3,3′-dimethyl-1′,11′-dioxo-1′,4′,5′,11′-tetrahydro-3′H,7′H-spiro[[1,4,2]dioxazole-5,6′-[2,7]methanopyrido[1,2-a][1,4]diazonine]-10′-carboxamide] was 789×; that for `CC1=NO[C@@]2(CC[C@H](C)N3C[C@H]2n2cc(C(=O)NCc4c(F)cc(F)cc4F)c(=O)c(O)c2C3=O)O1` [Example 92, (3′S,5R,7′R)-12′-hydroxy-3,3′-dimethyl-1′,11′-dioxo-N-(2,4,6-trifluorobenzyl)-1′,4′,5′,11′-tetrahydro-3′H,7′H-spiro[[1,4,2]dioxazole-5,6′-[2,7]methanopyrido[1,2-a][1,4]diazonine]-10′-carboxamide] was 2047×; that for `CCC1=NO[C@@]2(CC[C@H](C)N3C[C@H]2n2cc(C(=O)NCc4c(F)cc(F)cc4F)c(=O)c(O)c2C3=O)O1` [Example 93, (3′S,5R,7′R)-3-ethyl-12′-hydroxy-3′-methyl-1′,11′-dioxo-N-(2,4,6-trifluorobenzyl)-1′,4′,5′,11′-tetrahydro-3′H,7′H-spiro[[1,4,2]dioxazole-5,6′-[2,7]methanopyrido[1,2-a][1,4]diazonine]-10′-carboxamide] was 3109×.
The value for `CCC1=NO[C@@]2(CC[C@H](C)N3C[C@H]2n2cc(C(=O)NCc4ccc(F)cc4F)c(=O)c(O)c2C3=O)O1` [Example 94, (3′S,5R,7′R)—N-(2,4-difluorobenzyl)-3-ethyl-12′-hydroxy-3′-methyl-1′,11′-dioxo-1′,4′,5′,11′-tetrahydro-3′H,7′H-spiro[[1,4,2]dioxazole-5,6′-[2,7]methanopyrido[1,2-a][1,4]diazonine]-10′-carboxamide] was 3422×; that for `COC1=NO[C@@]2(CCCN3C[C@H]2n2cc(C(=O)NCc4c(F)cc(F)cc4F)c(=O)c(O)c2C3=O)C1` [Example 96, (5S,7′R)-12′-hydroxy-3-methoxy-1′,11′-dioxo-N-(2,4,6-trifluorobenzyl)-1′,4′,5′,11′-tetrahydro-3′H,4H,7′H-spiro[isoxazole-5,6′-[2,7]methanopyrido[1,2-a][1,4]diazonine]-10′-carboxamide] was 6×.
The same measure for `COC1=NO[C@@]2(CC[C@@H](C)N3C[C@H]2n2cc(C(=O)NCc4c(F)cc(F)cc4F)c(=O)c(O)c2C3=O)C1` [Example 97, (3′R,5S,7′R)-12′-hydroxy-3-methoxy-3′-methyl-1′,11′-dioxo-N-(2,4,6-trifluorobenzyl)-1′,4′,5′,11′-tetrahydro-3′H,4H,7′H-spiro[isoxazole-5,6′-[2,7]methanopyrido[1,2-a][1,4]diazonine]-10′-carboxamide]: 4×.

For the origin of these results see US20250115620A1, “BRIDGED TRICYCLIC CARBAMOYLPYRIDONE COMPOUNDS AND USES THEREOF” (Gilead Sciences, Inc., priority 2022, published 2025).
